System: Clavibacter michiganense subsp. Nebraskense (ATCC27822)
Assay: Basic test: cutting knife disinfection, ring rot pathogens
Format: cell-based
Conditions: cutting knife immersed 5 seconds

| SMILES | Logarithm (number of ring rot pathogens) (10 times solution) [cfu] | Logarithm (number of ring rot pathogens) (50 times solution) [cfu] |
| --- | --- | --- |
| CC(=O)O [Acetic acid, reference compound] | 3.5 | 7.0 |
| O=C1O[C@H]([C@@H](O)CO)C(O)=C1O [Ascorbic acid, reference compound] | 9.3 | – |
| O=C(O)CC(O)(CC(=O)O)C(=O)O [Citric acid, reference compound] | 9.3 | – |
| O=C(O)/C=C\C(=O)O [Maleic acid] | 0.0 | – |
| O=C1C=CC(=O)O1 [Maleic anhydride] | 0.0 | – |
| O=C(O)CC(O)C(=O)O (stereo not drawn) [Malic acid, reference compound] | 9.3 | – |
| O=C(O)CCC(=O)O [Succinic acid, reference compound] | 9.3 | 9.3 |
